Measured values as given in publication PMC3048469 (FEBS letters, 2011).

Test system: C=C(C)CCO[P@@](=O)(O)OP(=O)(O)O
Assay: purified protein
Details: pH 7.0; 37.0 °C

| Substance | Km [µM] |
| --- | --- |
| Rv3398c (Mycobacterium tuberculosis CDC1551) | 2.6 ± 0.4 |
| Rv0989c (Mycobacterium tuberculosis H37Rv) | 163 |
